Anti-infective test results gathered from many reports (values: NIAID ChemDB through PubChem).

Common to all: whole-cell or culture tests; species: Candida albicans

Lines come from different laboratories, so protocols vary. Zone: diameter of growth inhibition. Two numbers with a dash give a range or band. Inhibition is in % at the dose shown (toxicity tests: loss of growth or viability). Blank or dashed fields: not listed here. A number after MIC or MFC names an inhibition level or a share of isolates. ECn: concentration that inhibits the pathogen or its effect by n%.

| smiles | conditions | method | strain or isolate | dose | measure | result |
|---|---|---|---|---|---|---|
| CCCCCCCCCCCCCCn1cc[n+](COCCCOC[n+]2ccn(CCCCCCCCCCCCCC)c2)c1 |  | agar diffusion | ATCC 90028 |  | MIC100 | 14 µM |
| CC[C@@H]([C@H](C)O)n1ncn(-c2ccc(N3CCN(c4ccc(OC[C@@H]5CO[C@@](Cn6cncn6)(c6ccc(F)cc6F)C5)cc4)CC3)cc2)c1=O |  |  | 30 isolates |  | Geometric mean MIC | 0.11 µg/mL |
| Cc1ccc(-c2c3c(N)c4c(nc3nc3c2c(C)nn3-c2ccccc2)CCCC4)cc1 |  | broth dilution / absorbance | CCC 129 |  | MIC80 | 31.2 µg/mL |
| Clc1cccc(Cl)c1COc1ccc(C(c2ccc3ccccc3c2)n2ccnc2)cc1.O=[N+]([O-])O |  |  | 17 strains |  | Mean MIC | ≥256 µg/mL |
| O=C(Nc1ccc(Cn2ccnc2)cc1)c1cc([N+](=O)[O-])cc([N+](=O)[O-])c1 |  |  | 27 strains |  | Mean MIC | 126 µg/mL |
| Oc1ccc2cc1Oc1ccc(cc1)CCc1ccc(c(O)c1)-c1c(O)cccc1CC2 |  | broth dilution | CA10 |  | MIC80 | 16 µg/mL |
| C[C@@H](N1CCN(Cc2cn(-c3ccc(F)cc3)c3cc(Cl)ccc23)CC1)[C@](O)(Cn1cncn1)c1ccc(F)cc1F |  | resazurin | ATCC 36082 |  | MIC80 | 0.125 µg/mL |
| Cc1c(CN2CCN(C)CC2)cc(-c2ccccc2)n1-c1ccc([N+](=O)[O-])cc1 |  |  | 20 strains |  | Mean MIC | 200 µg/mL |
| CCC(C)CCCCCCCCCCC(=O)N[C@H]1C[C@@H](O)[C@@H](N=[N+]=[N-])NC(=O)C2[C@@H](O)[C@@H](C)CN2C(=O)C(CO)NC(=O)C([C@H](O)C(N=[N+]=[N-])c2ccc(O)cc2)NC(=O)NC(=O)[C@@H]2C[C@@H](O)CN2C(=O)[C@H]([C@@H](C)O)NC1=O |  | agar | IV | 2 mg/mL | zone | 21 mm |
| CC1=NN(c2nnc3c(n2)Nc2ccccc2N3)C(=O)C1=C(C)C |  |  | ATCC 2091 | 1000 µg/mL | zone | 23 mm |
| O=C(Nc1ccc(Cn2ccnc2)cc1)c1ccc(Cl)cc1Cl |  |  | 27 strains |  | Mean MIC | 83.33 µg/mL |
| N=C(N)c1ccc2nc(-c3ccc(-c4nc5ccc(C(=N)N)cc5[nH]4)[nH]3)[nH]c2c1 |  |  | Isolate CA1247 |  | MFC | 0.78 µg/mL |
| COc1ccc(-c2c3c(N)c4c(nc3nc3c2c(C)nn3-c2ccccc2)CCCCC4)cc1 |  | broth dilution / absorbance | ATCC 10231 |  | MIC50 | 125 µg/mL |
| Cc1c(CN(C)C)cc(-c2ccc(Cl)cc2)n1-c1ccc(Cl)cc1Cl |  |  | 20 strains |  | Mean MIC | 61 µg/mL |
| S=c1nc2c(n[nH]1)Cc1ccccc1N2 |  |  | ATCC 2091 | 1000 µg/mL | zone | 25 mm |
| CC(=O)OC[C@H]1O[C@@H](O[C@@H]2[C@@H](N=[N+]=[N-])[C@H](O)[C@H](O)[C@H]3OC(C)(C)O[C@H]32)[C@H](OC(C)=O)[C@@H](OC(C)=O)[C@H]1OC(C)=O |  | broth dilution / turbidity | ATCC 10231 | 31.25 µg/mL | inhibition | 14.13% |
| Cc1ccc(-c2c3c(N)c4c(nc3nc3c2c(C)nn3-c2ccccc2)CCC4)cc1 |  | broth dilution / absorbance | CCC 128 |  | MIC80 | 62.5 µg/mL |
| COC(=O)[C@H]1[C@@H]2C[C@@H](O[C@@H]3O[C@H](C)[C@@H](O)[C@H](N)[C@@H]3O)/C=C/C=C/C=C/C=C/C=C/C=C/C=C/[C@H](C)[C@@H](O)[C@H](C)[C@H](C)OC(=O)C[C@H](O)C[C@H](O)[C@@H](O)CC[C@H](O)C[C@H](O)C[C@](O)(C[C@@H]1O)O2 | pH 4 | broth dilution | 15 isolates |  | EC90 | 8 µg/mL |
| CCC(C)CCCCCCCCCCC(=O)N[C@H]1C[C@@H](O)[C@@H](SCC(=O)OC)NC(=O)C2[C@@H](O)[C@@H](C)CN2C(=O)C(CO)NC(=O)C([C@H](O)C(SCC(=O)OC)c2ccc(O)cc2)NC(=O)NC(=O)[C@@H]2C[C@@H](O)CN2C(=O)[C@H]([C@@H](C)O)NC1=O |  | agar | IV | 2 mg/mL | zone | 10 mm |
| CCCCCCCCCCCCCCn1cc[n+](COCCCCCOC[n+]2ccn(CCCCCCCCCCCCCC)c2)c1 |  | agar diffusion | ATCC 90028 |  | MIC100 | 27 µM |
| O=C(Nc1ccc(Cn2ccnc2)cc1)c1ccc(F)cc1 |  |  | 27 strains |  | Mean MIC | 142 µg/mL |
| CCCn1cc[n+](COCCCCCCOC[n+]2ccn(CCC)c2)c1 |  | agar diffusion | ATCC 90028 |  | MIC100 | 712 µM |
| COc1ccc(C(Cc2cccc([N+](=O)[O-])c2)n2ccnc2)cc1 |  |  | 34 strains |  | Geometric mean MIC | 256 µg/mL |
| Cc1c(Cn2ccnc2)cc(-c2ccc(Cl)cc2)n1-c1ccc(Cl)cc1 |  |  | 20 strains |  | Mean MIC | 34 µg/mL |
| Clc1ccc(COC(Cn2ccnc2)c2ccc(Cl)cc2Cl)c(Cl)c1 | pH 7 | broth dilution | 10 isolates |  | MIC | 0.125 µg/mL |
| Cc1ccc(-n2cc(C(C)(C)O)nn2)cc1C |  | broth dilution | URM 4127 | 2048 µg/mL | inhibition | 0% |
| COc1ccc(C(Cc2ccc([N+](=O)[O-])cc2)n2ccnc2)cc1 |  |  | 34 strains |  | Geometric mean MIC | >256 µg/mL |
| CCCCCOc1ccc(-c2cc(-c3ccc(C(=O)N[C@H]4C[C@@H](O)[C@@H](O)NC(=O)[C@@H]5[C@@H](O)[C@@H](C)CN5C(=O)[C@H]([C@H](O)CC(N)=O)NC(=O)[C@H]([C@H](O)[C@@H](O)c5ccc(O)c(OS(=O)(=O)O)c5)NC(=O)[C@@H]5C[C@@H](O)CN5C(=O)[C@H]([C@@H](C)O)NC4=O)cc3)no2)cc1 |  |  | 12 isolates |  | MFC90 | 0.25 µg/mL |
| CC[C@@H]([C@H](C)O)n1ncn(-c2ccc(N3CCN(c4ccc(OC[C@@H]5CO[C@@](Cn6cncn6)(c6ccc(F)cc6F)C5)cc4)CC3)cc2)c1=O | pH 4 | broth dilution | 15 isolates |  | MIC | 0.03 µg/mL |
| Fc1ccc(COc2ccc(C(c3ccc(-c4ccccc4)cc3)n3ccnc3)cc2)cc1.O=[N+]([O-])O |  |  | 16 strains |  | Mean MIC | ≥256 µg/mL |
| CCC(C)n1ncn(-c2ccc(N3CCN(c4ccc(OC[C@H]5CO[C@](Cn6cncn6)(c6ccc(Cl)cc6Cl)O5)cc4)CC3)cc2)c1=O |  |  | 55 strains (fluconazole-susceptible) |  | Geometric mean MIC | 0.02 µg/mL |
| CC(C)(O)c1cn(-c2ccc3ccccc3c2)nn1 |  | broth dilution | URM 4126 | 2048 µg/mL | inhibition | 0% |
| Clc1cccc(Cl)c1COc1ccc(C(c2ccc(-c3ccccc3)cc2)n2ccnc2)cc1.O=[N+]([O-])O |  |  | 17 strains |  | Mean MIC | ≥256 µg/mL |
| O=C(Nc1ccc(Cn2ccnc2)cc1)c1ccccc1Cl |  |  | 27 strains |  | Mean MIC | 150 µg/mL |
| Cc1c(CN2CCCC2)cc(-c2ccc(Cl)cc2)n1-c1ccc(Cl)cc1Cl |  |  | 20 strains |  | Mean MIC | 70.2 µg/mL |
| CCC(C)CCCCCCCCCCC(=O)N[C@H]1C[C@@H](O)[C@@H](S(=O)(=O)CC(=O)OC)NC(=O)C2[C@@H](O)[C@@H](C)CN2C(=O)C(CO)NC(=O)C([C@H](O)C(O)c2ccc(O)cc2)NC(=O)NC(=O)[C@@H]2C[C@@H](O)CN2C(=O)[C@H]([C@@H](C)O)NC1=O |  | agar | IV | 2 mg/mL | zone | 23 mm |
| CCCCCCCCCCCCCCCCn1cc[n+](COCCCOC[n+]2ccn(CCCCCCCCCCCCCCCC)c2)c1 |  | agar diffusion | ATCC 90028 |  | MIC100 | 106 µM |
| CC(O)Cc1ccc(Cn2cc(CN3CCN([C@H](C)[C@](O)(Cn4cncn4)c4ccc(F)cc4F)CC3)c3cccc(F)c32)cc1 |  | resazurin | ATCC MYA-1003 |  | MIC80 | >128 µg/mL |
| Cc1c(CN2CCCC2)cc(-c2ccccc2)n1-c1ccc(Cl)cc1 |  |  | 20 strains |  | Mean MIC | 104.8 µg/mL |
| C[C@H]1[C@H](O)[C@@H](C)/C=C/C=C/C=C/C=C/C=C/C=C/C=C/[C@H](O[C@@H]2O[C@H](C)[C@@H](O)[C@H](N)[C@@H]2O)C[C@@H]2O[C@](O)(C[C@@H](O)C[C@@H](O)CC[C@H](O)[C@@H](O)C[C@@H](O)CC(=O)O[C@H]1C)C[C@H](O)[C@H]2C(=O)O |  |  | A28235 |  | MFC99 | 0.5 µg/mL |
| Cc1c(CN(C)C)cc(-c2ccc(Cl)cc2)n1-c1ccc(Cl)cc1 |  |  | 20 strains |  | Mean MIC | 27.8 µg/mL |
| CCCCCCCCCCCCn1cc[n+](COCCCOC[n+]2ccn(CCCCCCCCCCCC)c2)c1 |  | agar diffusion | ATCC 90028 |  | MIC100 | 8 µM |
| CCC(C)CCCCCCCCCCC(=O)N[C@H]1C[C@@H](O)[C@@H](SCC(=O)OC)NC(=O)C2[C@@H](O)[C@@H](C)CN2C(=O)C(CO)NC(=O)C([C@H](O)C(O)c2ccc(O)cc2)NC(=O)NC(=O)[C@@H]2C[C@@H](O)CN2C(=O)[C@H]([C@@H](C)O)NC1=O |  | agar | IV | 2 mg/mL | zone | 22 mm |
| CC(C)(O)c1cn(-c2ccc([N+](=O)[O-])cc2)nn1 |  | broth dilution | URM 4124 | 2048 µg/mL | inhibition | 0% |
| C=CCc1ccc(O)c(OC)c1 |  | turbidity | 3253 |  | MIC90 | 475 µg/mL |
| COc1ccc(C(Cc2cccc(Cl)c2)n2ccnc2)cc1 |  |  | 34 strains |  | Geometric mean MIC | 137.3 µg/mL |
| Cc1ccc(C(C)C)cc1O |  |  | ATCC 10231 |  | MLC | 0.16–0.32 µg/mL |
| Cc1ccc(-c2c3c(N)c4c(nc3nc3c2c(C)nn3-c2ccccc2)CCCCC4)cc1 |  | broth dilution / absorbance | CCC 128 |  | MIC50 | 62.5 µg/mL |
| C[C@H]1[C@H](O)[C@@H](C)/C=C/C=C/C=C/C=C/C=C/C=C/C=C/[C@H](O[C@@H]2O[C@H](C)[C@@H](O)[C@H](N)[C@@H]2O)C[C@@H]2O[C@](O)(C[C@@H](O)C[C@@H](O)CC[C@H](O)[C@@H](O)C[C@@H](O)CC(=O)O[C@H]1C)C[C@H](O)[C@H]2C(=O)O |  |  | 8 strains |  | Geometric mean MIC | 1 µg/mL |
| Clc1ccc(COc2ccc(C(c3cccc4ccccc34)n3ccnc3)cc2)c(Cl)c1.O=[N+]([O-])O |  |  | 17 strains |  | Mean MIC | ≥256 µg/mL |
| OC(CN1CCN(c2ccc(OCc3ccncc3)cc2)CC1)(Cn1cncn1)c1ccc(F)cc1F |  |  | FH5 |  | MIC80 | 0.25 µg/mL |
| CCOC(=O)Cc1nnc2nnc3c(n12)Nc1ccccc1C3 |  |  | ATCC 2091 | 1000 µg/mL | zone | 23 mm |
| C[C@H]1[C@H](O)[C@@H](C)/C=C/C=C/C=C/C=C/C=C/C=C/C=C/[C@H](O[C@@H]2O[C@H](C)[C@@H](O)[C@H](N)[C@@H]2O)C[C@@H]2O[C@](O)(C[C@@H](O)C[C@@H](O)CC[C@H](O)[C@@H](O)C[C@@H](O)CC(=O)O[C@H]1C)C[C@H](O)[C@H]2C(=O)O |  | broth dilution | 27 |  | EC50 | 1 µM |
| Cc1c(C(=O)N(C)C)cc(-c2ccc(Cl)cc2)n1-c1ccc(Cl)cc1 |  |  | 20 strains |  | Mean MIC | >200 µg/mL |
| CC[C@@H]([C@H](C)O)n1ncn(-c2ccc(N3CCN(c4ccc(OC[C@@H]5CO[C@@](Cn6cncn6)(c6ccc(F)cc6F)C5)cc4)CC3)cc2)c1=O |  |  | 10 strains (fluconazole-resistant) |  | Geometric mean MIC | 0.2 µg/mL |
| NCCCC[C@H](NC(=O)[C@H](Cc1c[nH]c2ccccc12)NC(=O)[C@H](CCCCN)NC(=O)[C@@H](N)CCCCN)C(=O)O |  |  | ATCC 10231 | 25 µM | inhibition | 0% |
| C[C@@H](N1CCN(Cc2cn(Cc3ccc(Cl)cc3Cl)c3ccc(C#N)cc23)CC1)[C@](O)(Cn1cncn1)c1ccc(F)cc1F |  | resazurin | ATCC MYA-1003 |  | MIC80 | >128 µg/mL |
| Cc1c(CNc2ccccc2)cc(-c2ccccc2)n1-c1ccc(Cl)cc1 |  |  | 20 strains |  | Mean MIC | >200 µg/mL |
| COc1cc(C(c2nccc3ccccc23)n2ccnc2)cc(OC)c1OC |  |  | 44 strains |  | Mean MIC | >256 µg/mL |
| CCC(C)n1ncn(-c2ccc(N3CCN(c4ccc(OC[C@H]5CO[C@](Cn6cncn6)(c6ccc(Cl)cc6Cl)O5)cc4)CC3)cc2)c1=O | pH 7 | broth dilution | 10 isolates |  | EC90 | 0.03 µg/mL |
| CN(C)C=O |  |  | ATCC 2091 | 1000 µg/mL | zone | 21 mm |
| C[C@@H](N1CCN(Cc2cn(Cc3ccc(Cl)cc3Cl)c3cc(Cl)ccc23)CC1)[C@](O)(Cn1cncn1)c1ccc(F)cc1F |  | resazurin | ATCC MYA-1003 |  | MIC80 | >128 µg/mL |
| CCCCCCCCCCCCCCCCn1cc[n+](COCCOC[n+]2ccn(CCCCCCCCCCCCCCCC)c2)c1 |  | agar diffusion | ATCC 90028 |  | MIC100 | 108 µM |